Biological target: protective antigen PA83 (Bacillus anthracis, UniProt P13423 30-764)

B1: Fab 35PA83 (Fab, V domains shown)
VH: GPGLLKPSETLSLTCAVSGDSISGGYYWSWIRQSPGKGLEWIGHIYGSTADTRYNPSLKSRVTISKDTSKNQLSLQLRSVTAADTAVYYCARSGYNFWSGEYYGLDSWGQGAVVTVSS
VL: TQSPSSLSAYVGDKVTITCHASQGINSWLAWYQQKPGKAPKLLIYKASSLQSGVPSRFSGSGSGTDYTLTISSLQSEDFASYYCLQYDSAPLAFGPGTKLDIKR
- Kd: 3.4 nM
- koff: 0.00032 s⁻¹
- kon: 93000 M⁻¹ s⁻¹

Source: patent publication US20110033450A1 (ETAT FRANCAIS REPRESENTE PAR LE DELEGUE GENERAL POUR I …, published 2011)
